System: SARS-CoV-2 PsV
Format: cell-based
Settings: highest dose, pre-incubated with PsV 45 min, 293/ACE2/TMPRSS2 cells, luciferase

Substance: ACE2: Recombinant human angiotensin-converting enzyme 2 (ACE2) protein (carrier-free), R&D Systems
- PsV infection inhibition: ~66%

Source: patent US20250009896A1, “SUPR[…] BASED VIRAL […] CAPTURE FOR PREVENTION AND THERAPY OF VIRAL INFECTION” (The Johns Hopkins University, priority 2023, published 2025)
